From patent publication US20250057791A1, “PROTECTION AGAINST ARTHROPOD PARASITES WITH PURINERGIC RECEPTOR (OPR) ANTAGONISTS” (priority 2021, published 2025)

Tested on: A. gambiae labellum sensilla (purine-sensitive cell)
Assay: Tip recording of action potentials from A. gambiae labellum sensilla in response to agonists
Assay type: cell-based, Anopheles gambiae
Conditions: for Spike amplitude (mean±s.e.m.): 200 pM ATP, 200 pM adenosine, 1 mM sucrose
Experimental: The tip recording method was used to record action potentials (spikes) from sensory cells in sensilla on A. gambiae labellum lobes.
Sensilla were exposed to test compounds and PR antagonists for ca. 2-4 s and spikes were counted in the first 2 s of recordings. Up to 4 test compounds were tested on a sensillum to evaluate potential agonists, each presented at 200 pM. To study responses as a function of dose for agonists ATP, adenosine, AMP, AMP-CPP and ATP+adenosine, up to 7 recordings were made at increasing doses of agonist from the same sensillum. Unless otherwise stated, recordings were made throughout from 4 to 16 sensilla from individual 4-6-day-old females per dose of agonist, antagonist and metal ion modulator. For example, a response curve established over 6 doses of an antagonist using 8 sensilla per dose involved recording from a sensillum of 48 separate mosquitoes. A given dose of a PR antagonist or metal ion modulator was only presented once to a sensillum. Two-second recordings were imported as ASCII files into DataView software for analysis of spike amplitude. […]
Spike counts elicited by 200 pM doses of nucleotides, nucleosides, purines, pyrimidines and water were log(x+1.25)-transformed (optimal constant numerically established using a maximum likelihood procedure) and analysed using a linear mixed effects model (function ‘lme’ in “nlme” R package) with mosquito number as random effect. […] Spike counts elicited by ATP, AMP, adenosine and their binary mixtures were analysed using a generalised linear model (LM) of log (x+10) transformed data and differences were identified using post-hoc-Tukey test with Holm's FWEC. […]
Dose-response models fitted to mosquito data were generated using the ‘drm’ command in the “drc” R package (version 2.5-12). Best fitting models (goodness of fit) and effects of dose of a compound were assessed using, respectively, ‘modelFit’ and ‘noEffect’ functions in the same R package. A 3-parameter logistic model (L3) was fitted to spike-counts recorded to increasing doses of adenosine, AMP, ATP and AMP-CPP. […]

Compound	Spike amplitude (mean±s.e.m.) [mV]	Spike amplitude relative to that elicited by ATP or adenosine (1 mM sucrose vs 200 pM ATP) [times]
Nc1ncnc2c1ncn2[C@@H]1O[C@H](CO)[C@@H](O)[C@H]1O [Adenosine, 9-β-D-Ribofuranosyladenine]	2.57	–
OC[C@H]1O[C@@](CO)(O[C@H]2O[C@H](CO)[C@@H](O)[C@H](O)[C@H]2O)[C@@H](O)[C@@H]1O [sucrose, D-(+)-sucrose]	4.44	1.7
